# Values quoted from earlier work in patent US4942154A, “Steroidal glycolipids as host resistance stimulators against viral infection” (priority 1987, dated 1990).
# System: AIDS / AIDS-related complex (ARC)
# Conditions: human, in vivo; cited from earlier work
substance,measurement,value
Interleukin-2: Protein made by white blood cells that mediates production of interferon,clinical effect in AIDS / ARC patients,not encouraging
